Anti-infective test results gathered from many reports (values: NIAID ChemDB through PubChem).

Shared fields: whole-cell or culture tests; agent: Herpes simplex virus 1

Conditions beyond the fields shown may differ between rows. ECn: concentration that inhibits the pathogen or its effect by n%. a–b is a range or a potency band. Blank or dashed fields: not listed here.

| compound | cells | method | measure | strain | value |
|---|---|---|---|---|---|
| NC1CCCON2CCc3c([nH]c4ccccc34)[C@H]12 | PRK | cytopathic effect | EC50 | KOS | 2 µg/mL |
| COc1ccc(-c2cc(N3CCCC3)no2)c(O)c1 | VERO | plaque count | EC50 | ATCC VR733 | >384 µM |
| O=C(OC[C@H]1O[C@@H](OC(=O)c2cc(O)c(O)c(O)c2)[C@H](O)[C@@H](OC(=O)c2cc(O)c(O)c(O)c2)[C@@H]1O)c1cc(O)c(O)c(O)c1 | CV-1 | plaque count | EC50 | F | 0.15 µg/mL |
| O=c1[nH]c(=O)n([C@H]2C[C@H](O)[C@@H](CO)O2)cc1/C=C/Br | PRK | cytopathic effect | EC50 | F | 0.02 µg/mL |
| Nc1ncc2c(ncn2/C=C2\CC2CO)n1 | - | ELISA | EC50 | - | >100 µM |
| CCCCCC[C@@H]([C@H](C)O)n1cnc2c(N)ncnc21 | PRK | cytopathic effect | EC50 | KOS F McIntyre | 100 µg/mL |
| CCOc1nc(N)nc2c1ncn2CC1(OCP(=O)(O)O)CC1 | HEPG2 2.2.22 | - | EC50 | - | >30 µM |
| CSc1nsc(-c2ccc(OCCCOc3ccccc3)cc2)c1C#N | HEP-2/L-929/VERO | plaque count | EC50 | F | >20 µM |
| CCN(CC)c1cc(-c2ccc(O)cc2O)on1 | VERO | plaque count | EC50 | ATCC VR733 | >121 µM |
| O=c1[nH]c(=O)n([C@@H]2O[C@H](CO)[C@@H](O)[C@@H]2O)cc1/C=C/Br | E6SM | virus yield | EC50 | KOS | 1 µM |
| Nc1nc(=O)n([C@H]2C[C@H](O)[C@@H](CO)O2)cc1Br | PRK | cytopathic effect | EC50 | KOS F McIntyre | 0.1 µg/mL |
| CCC(=O)Nc1nc(=O)n([C@@H]2C[C@H](CO)[C@@H](O)C2)cc1COC | A549 | plaque count | EC50 | McIntyre | 3.06 µM |
| COc1c(C#N)c2cc(Cl)c(Cl)cc2n1[C@@H]1O[C@H](CO)[C@@H](O)[C@H]1O | BSC-1 | ELISA | EC50 | - | 20 µM |
| C#CCOc1cc(OC)ccc1-c1cc(N(CC)CC)no1 | VERO | plaque count | EC50 | ATCC VR733 | >40 µM |
| CCOC(=O)c1ccc(OCCCCOc2ccc(-c3snc(SC)c3C#N)cc2)cc1 | HEP-2/L-929/VERO | plaque count | EC50 | F | >2 µM |
| Nc1nc(=O)n([C@@H]2O[C@H](CO)[C@@H](O)[C@@H]2F)cc1I | BALB/3T3 | cytopathic effect | EC50 | KOS | 0.02 µg/mL |
| Nc1nc2c(ncn2COCCO)c(=O)[nH]1 | PRK | cytopathic effect | EC50 | F | 0.2 µg/mL |
| O=c1[nH]c(=O)n([C@@H]2C[C@H](CO)[C@@H](O)C2)cc1/C=C/Br | PRK | cytopathic effect | EC50 | F | 0.02 µg/mL |
| CCNc1nc(N)nc2c1ncn2CC1(OCP(=O)(O)O)CC1 | HEPG2 2.2.20 | - | EC50 | - | >30 µM |
| Cc1cn([C@@H]2O[C@H](CO)[C@@H](O)[C@@H]2O)c(=O)[nH]c1=O | PRK | cytopathic effect | EC50 | KOS F McIntyre | 0.5 µg/mL |
| CNc1c(C=O)c2cc(Cl)c(Cl)cc2n1[C@@H]1O[C@H](CO)[C@@H](O)[C@H]1O | BSC-1 | ELISA | EC50 | - | 35 µM |
| CN1[C@@H]2CC[C@H]1CC(OC(=O)C(CO)c1ccccc1)C2 | HeLa | cytopathic effect | EC50 | - | 50–100 µg/mL |
| O=c1[nH]c(=O)n(C2CC(CO)[C@@H](O)C2)cc1/C=C/Br | PRK | cytopathic effect | EC50 | KOS | 0.02 µg/mL |
| CCOc1cc(O)c(C(=O)/C=C/c2ccc(OC)cc2)c(OC)c1 | HeLa | cytopathic effect | EC50 | HF | >3 µg/mL |
| COCC(=O)NC(CCSC[C@H]1O[C@@H](n2ccc3c(N)ncnc32)[C@H](O)[C@@H]1O)C(=O)OC(C)C | PRK/E6SM | cytopathic effect | EC50 | KOS | 150 µg/mL |
| O=c1[nH]c(=O)n([C@@H]2C[C@H](CO)[C@@H](O)C2)cc1I | PRK | cytopathic effect | EC50 | VMW1837 (TK-) | >400 µg/mL |
| Nc1nc2c(ncn2COC(CO)CF)c(=O)[nH]1 | VERO | plaque count | EC50 | F | 7 µM |
| Nc1nc2c(ncn2COCCO)c(=O)[nH]1 | VERO | plaque count | EC50 | KOS | 3.45 µg/mL |
| O=c1[nH]c(=O)n([C@H]2C[C@H](O)[C@@H](CO)O2)cc1Cc1ccccc1 | HSF | cytopathic effect | EC50 | KOS | 450 µM |
| O=c1[nH]c(=O)n([C@H]2C[C@H](O)[C@@H](CO)O2)cc1I | PRK | cytopathic effect | EC50 | KOS F McIntyre | 0.15 µg/mL |
| CC(N=[N+]=[N-])c1cn([C@H]2C[C@H](O)[C@@H](CO)O2)c(=O)[nH]c1=O | HFF | cytopathic effect | EC50 | E-377 | >100 µM |
| COC(=O)[C@H]1[C@@H]2C[C@@H](O[C@@H]3O[C@H](C)[C@@H](O)[C@H](N)[C@@H]3O)/C=C/C=C/C=C/C=C/C=C/C=C/C=C/[C@H](C)[C@@H](O)[C@H](C)[C@H](C)OC(=O)C[C@H](O)C[C@H](O)[C@@H](O)CC[C@H](O)C[C@H](O)C[C@](O)(C[C@@H]1O)O2 | HFF | plaque count | EC50 | - | 1 µg/mL |
| Cc1ccn2c(CSCCO)cnc2c1 | E6SM | cytopathic effect | EC50 | KOS | >200 µg/mL |
| COCc1cn([C@@H]2C[C@H](CO)[C@@H](O)C2)c(=O)nc1NC(=O)C(C)(C)C | A549 | plaque count | EC50 | McIntyre | >1024 µM |
| Cn1cc(C(=O)NCc2ccc(Cl)cc2)c(=O)c2cc(CN3CCOCC3)ccc21 | VERO | plaque count | EC50 | KOS | 3.3 µM |
| Nc1nc2c(ncn2CCC(CO)CO)c(=O)[nH]1 | MRC-5 | virus yield | EC99 | SC16 | 0.6 µg/mL |
| CN(C)c1c(C=O)c2cc(Cl)c(Cl)cc2n1[C@@H]1O[C@H](CO)[C@@H](O)[C@H]1O | BSC-1 | ELISA | EC50 | - | 15 µM |
| O=c1[nH]c(=O)n(C2CC(CO)[C@H](O)C2)cc1I | PRK | cytopathic effect | EC50 | B2006 (TK-) | >400 µg/mL |
| Cc1nc(N)nc2c1ncn2CC1(OCP(=O)(O)O)CC1 | HEPG2 2.2.19 | - | EC50 | - | >30 µM |
| CSc1nsc(-c2ccc(OCCCOc3ccc(C#N)cc3)cc2)c1C#N | HEP-2/L-929/VERO | plaque count | EC50 | F | >2 µM |
| Nc1nc2c(ncn2COCCO)c(=O)[nH]1 | PRK | cytopathic effect | EC50 | KOS | 0.06 µg/mL |
| N#CSc1cn([C@H]2C[C@H](O)[C@@H](CO)O2)c(=O)[nH]c1=O | PRK | cytopathic effect | EC50 | - | 4 µg/mL |
| Nc1ncc2c(ncn2/C=C2/CC2CO)n1 | - | ELISA | EC50 | - | >100 µM |
| CCOc1ccc(-c2cc(N3CCCCC3)no2)c(O)c1 | VERO | plaque count | EC50 | ATCC VR733 | >347 µM |
| O=c1[nH]c(=O)n([C@H]2C[C@H](O)[C@@H](CO)O2)cc1I | CV-1 | plaque count | EC50 | HF | 16 µg/mL |
| O=c1[nH]c(=O)n([C@@H]2OC3COP(=O)(O)OC3[C@H]2O)cc1I | PRK | cytopathic effect | EC50 | F | 40 µg/mL |
| Nc1nc2c(ncn2CC2(OCP(=O)(O)O)CC2)c(=O)[nH]1 | HepG2 2.2.15 | - | EC50 | - | >30 µM |
| O=Cc1c(Cl)n([C@@H]2O[C@H](CO)[C@@H](O)[C@H]2O)c2cc(Cl)c(Cl)cc12 | BSC-1 | ELISA | EC50 | - | 40 µM |
| CCOc1ccc(-c2cc(N(CC)CC)no2)c(O)c1 | VERO | plaque count | EC50 | ATCC VR733 | >362 µM |
| CON1CCc2c([nH]c3ccccc23)[C@@H]1[C@@H](N)CSC | PRK | cytopathic effect | EC50 | B2006 (TK-) | >100 µg/mL |
| COC(C)c1cn([C@H]2C[C@H](O)[C@@H](CO)O2)c(=O)[nH]c1=O | HFF | cytopathic effect | EC50 | E-377 | 0.6 µM |
| Nc1nc2nn(CCOCP(=O)(O)O)nc2c(=O)[nH]1 | E6SM | cytopathic effect | EC50 | KOS | >400 µg/mL |
| Nc1nc2c(ncn2COCCO)c(=O)[nH]1 | VERO | plaque count | EC90 | KOS | 12.7 µM |
| CCN(CC)c1cc(-c2ccc(OC)cc2O)on1 | VERO | plaque count | EC50 | ATCC VR733 | >381 µM |
| C#Cc1cn([C@H]2C[C@H](O)[C@@H](CO)O2)c(=O)[nH]c1=O | PRK | cytopathic effect | EC50 | KOS | 0.1 µg/mL |
| CSc1nsc(-c2ccc(OCCOc3ccccc3)cc2)c1C#N | HEP-2/L-929/VERO | plaque count | EC50 | F | >20 µM |
| CC(=O)NC(CCSC[C@H]1O[C@@H](n2ccc3c(N)ncnc32)[C@H](O)[C@@H]1O)C(=O)OC(C)C | PRK/E6SM | cytopathic effect | EC50 | KOS | 100 µg/mL |
| O=c1[nH]c(=O)n([C@H]2C[C@H](O)[C@@H](CO)O2)cc1/C=C/Br | HeLa | cytopathic effect | EC50 | KOS | 0.02 µg/mL |
| CC(O)CCCCCC(CCCCCCCCCCCCCC1CC(=O)OC[C@H]2O[C@@H](OC(CCCCCCCCCCCC(CCCCCC(C)O)O[C@@H]3O[C@H](CO)[C@@H](O)[C@H](O)[C@H]3O)CC(=O)OC[C@@H]3O[C@H](O1)[C@@H](O)[C@H](O)[C@H]3O)[C@H](O)[C@@H](O)[C@@H]2O)O[C@@H]1O[C@H](CO)[C@@H](O)[C@H](O)[C@H]1O | VERO | cytopathic effect | EC50 | KOS | 2.7 µg/mL |
| [N-]=[N+]=NC(CBr)c1cn(CCC(CO)CO)c(=O)[nH]c1=O | VERO | plaque count | EC50 | KOSSB (TK-) | >135 µM |
| CC(=O)OC[C@H]1O[C@@H](n2cc(SC#N)c(=O)[nH]c2=O)[C@H](OC(C)=O)[C@@H]1OC(C)=O | PRK | cytopathic effect | EC50 | - | 40 µg/mL |
| COCc1cn([C@@H]2C[C@H](CO)[C@@H](O)C2)c(=O)nc1Nc1ccccc1 | A549 | plaque count | EC50 | McIntyre | >2920 µM |
| COc1c(C=O)c2cc(Cl)c(Cl)cc2n1[C@@H]1O[C@H](CO)[C@@H](O)[C@H]1O | BSC-1 | ELISA | EC50 | - | 20 µM |
| Nc1nc2c(ncn2COCCO)c(=O)[nH]1 | VERO | plaque count | EC50 | 1 | 6.6 µM |
| OC[C@H]1O[C@@H](c2cc(Cl)nc3cc(Cl)c(Cl)cc23)C(O)C1O | HFF | virus yield | EC50 | - | <31 µM |

Repeating the final 9 entries:

| compound | cells | method | measure | strain | value |
|---|---|---|---|---|---|
| CC(=O)NC(CCSC[C@H]1O[C@@H](n2ccc3c(N)ncnc32)[C@H](O)[C@@H]1O)C(=O)OC(C)C | PRK/E6SM | cytopathic effect | EC50 | KOS | 100 µg/mL |
| O=c1[nH]c(=O)n([C@H]2C[C@H](O)[C@@H](CO)O2)cc1/C=C/Br | HeLa | cytopathic effect | EC50 | KOS | 0.02 µg/mL |
| CC(O)CCCCCC(CCCCCCCCCCCCCC1CC(=O)OC[C@H]2O[C@@H](OC(CCCCCCCCCCCC(CCCCCC(C)O)O[C@@H]3O[C@H](CO)[C@@H](O)[C@H](O)[C@H]3O)CC(=O)OC[C@@H]3O[C@H](O1)[C@@H](O)[C@H](O)[C@H]3O)[C@H](O)[C@@H](O)[C@@H]2O)O[C@@H]1O[C@H](CO)[C@@H](O)[C@H](O)[C@H]1O | VERO | cytopathic effect | EC50 | KOS | 2.7 µg/mL |
| [N-]=[N+]=NC(CBr)c1cn(CCC(CO)CO)c(=O)[nH]c1=O | VERO | plaque count | EC50 | KOSSB (TK-) | >135 µM |
| CC(=O)OC[C@H]1O[C@@H](n2cc(SC#N)c(=O)[nH]c2=O)[C@H](OC(C)=O)[C@@H]1OC(C)=O | PRK | cytopathic effect | EC50 | - | 40 µg/mL |
| COCc1cn([C@@H]2C[C@H](CO)[C@@H](O)C2)c(=O)nc1Nc1ccccc1 | A549 | plaque count | EC50 | McIntyre | >2920 µM |
| COc1c(C=O)c2cc(Cl)c(Cl)cc2n1[C@@H]1O[C@H](CO)[C@@H](O)[C@H]1O | BSC-1 | ELISA | EC50 | - | 20 µM |
| Nc1nc2c(ncn2COCCO)c(=O)[nH]1 | VERO | plaque count | EC50 | 1 | 6.6 µM |
| OC[C@H]1O[C@@H](c2cc(Cl)nc3cc(Cl)c(Cl)cc23)C(O)C1O | HFF | virus yield | EC50 | - | <31 µM |